Measured values as given in PMC9320654, “Study on In Vitro Metabolism and In Vivo Pharmacokinetics of Beauvericin” (Toxins, 2022).
Several values for one entry are separate records, joined by “and”; a condition that tells them apart may be missing. Identical values can stand only once. Entries after “also recorded” stand apart in the source; their conditions may differ.

Protein sequences, listed by entry. Tags and fused reporters are not part of them. Residues count along the entry.
UniProt P08684, 2-503: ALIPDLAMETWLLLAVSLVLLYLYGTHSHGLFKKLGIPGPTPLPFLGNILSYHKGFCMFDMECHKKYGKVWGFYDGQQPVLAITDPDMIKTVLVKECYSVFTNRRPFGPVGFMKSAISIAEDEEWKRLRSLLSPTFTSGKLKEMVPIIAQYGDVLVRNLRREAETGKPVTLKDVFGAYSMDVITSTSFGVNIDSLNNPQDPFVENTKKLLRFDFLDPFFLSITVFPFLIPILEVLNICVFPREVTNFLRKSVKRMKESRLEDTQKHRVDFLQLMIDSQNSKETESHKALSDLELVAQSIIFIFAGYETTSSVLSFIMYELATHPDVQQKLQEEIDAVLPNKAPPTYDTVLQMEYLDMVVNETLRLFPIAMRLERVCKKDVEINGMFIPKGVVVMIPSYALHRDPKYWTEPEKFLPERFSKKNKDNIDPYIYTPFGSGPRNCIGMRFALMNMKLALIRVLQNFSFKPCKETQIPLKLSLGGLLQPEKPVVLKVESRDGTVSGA
UniProt P05177, whole entry: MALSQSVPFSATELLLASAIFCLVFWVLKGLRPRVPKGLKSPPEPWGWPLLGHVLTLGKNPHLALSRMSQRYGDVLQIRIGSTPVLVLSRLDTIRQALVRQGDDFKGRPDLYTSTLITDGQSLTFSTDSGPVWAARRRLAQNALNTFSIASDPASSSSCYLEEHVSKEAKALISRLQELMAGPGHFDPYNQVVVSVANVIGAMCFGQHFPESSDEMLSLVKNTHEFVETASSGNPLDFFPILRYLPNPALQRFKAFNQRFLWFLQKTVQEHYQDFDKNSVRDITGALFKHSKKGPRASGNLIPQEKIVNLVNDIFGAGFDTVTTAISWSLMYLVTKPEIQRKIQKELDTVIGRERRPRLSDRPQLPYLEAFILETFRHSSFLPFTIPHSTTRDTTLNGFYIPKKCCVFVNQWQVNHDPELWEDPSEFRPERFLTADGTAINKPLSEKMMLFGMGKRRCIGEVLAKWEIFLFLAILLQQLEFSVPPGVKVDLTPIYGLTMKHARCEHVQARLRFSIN

Experiments:
[1] = Metabolic stability in liver microsomes, DLM; assay type: in vitro ADME, beagle dog; settings: scaled from DLM CLint(mic)
From the text: […]. […] […]

[2] = Metabolite identification by LC-UV-MS^n in dog liver microsomes; assay type: in vitro ADME; parameters: key: +: metabolite was detected in liver microsomes; -: metabolite was detected in liver microsomes; settings: BEA 10 µM, 37 °C, 60 min
Experimental: (§1) The objectives of this study were to search for and to identify the metabolites of BEA in liver microsomes from mice, rats, dogs, monkeys and humans by LC-UV-MS^n (n = 1~2) (based on peak intensity ≥ 1% of total drug related components), and to propose its metabolic pathways.
(§2) The test compound BEA at 10 µM was incubated with liver microsomes at 37 °C for 60 min. The positive control, 7-ethoxycoumarin (7-EC) at 10 µM, was run concurrently to assess Phase I metabolic activities in liver microsomes. […] After incubation, the samples were analyzed by LC-UV-MS (Table S7). The structures of the metabolites were proposed based on the interpretation of their MS and MS2 data. The results are presented in Table 6 and Figure 6. %Total=Peak Area of a Releted Component/Peak Area of Total Releted Component×100%

[3] = Metabolite identification by LC-UV-MS^n in rat liver microsomes; assay type: in vitro ADME; parameters: key: +: metabolite was detected in liver microsomes; -: metabolite was detected in liver microsomes; settings: BEA 10 µM, 37 °C, 60 min
Experimental: as §1, §2

[4] = Plasma stability, monkey plasma; assay type: in vitro ADME; settings: 37 °C, n = 2
Experimental: (§3) The pooled frozen plasma was thawed in a water bath at 37 °C prior to the experiment. Plasma was centrifuged at 4000 rpm for 5 min, and the clots, if any, were removed. Using an Apricot automation workstation, blank plasma (98 μL/well) was added to six 96-well reaction plates (Blank, T0, T10, T30, T60, and T120). An Apricot automation workstation was used to add working solution (2 μL/well, 100 μM) to all reaction plates except the Blank plate (T0, T10, T30, T60, and T120). All reaction plates containing mixtures of compound and plasma were incubated at 37 °C in a water bath. At the end of the incubation, 400 μL of stop solution (200 ng/mL tolbutamide and 200 ng/mL labetalol in acetonitrile) was added to precipitate the protein, and the mixture was mixed thoroughly. Samples were then vortexed and centrifuged (20 min, 4000 rpm, 4 °C). After centrifugation, an Apricot automation workstation was used to transfer 50 μL of supernatant into 100 μL of HPLC water. […] The % remaining test compound after incubation in plasma was calculated using the following equation:(11) % Remaining= PAR at appointed incubation time/PAR at T0 time×100 where PAR is the peak area ratio of analyte versus internal standard (IS). […]

[5] = Metabolite identification by LC-UV-MS^n in human liver microsomes; assay type: in vitro ADME; parameters: key to Detected in liver microsomes: Human: +: metabolite was detected in liver microsomes; -: metabolite was not detected in liver microsomes
Experimental: as §1, §2

[6] = Metabolic stability in cryopreserved hepatocytes, monkey; assay type: in vitro ADME, cynomolgus monkey
Experimental: (§4) BEA (10 mM) was incubated in duplicate in a 96-well plate containing a suspension of mouse, rat, monkey, dog, or human hepatocytes (0.5 × 10^6 cells/mL) at 37 °C for 1.5 h in a controlled atmosphere (5% CO2, 95% humidified incubator). BEA and the control were prepared with 50 μL of DMSO and 450 μL of acetonitrile (ACN) to achieve a final concentration of 1 μM, and then spiked into each well of 96-well plates in duplicates. Samples were withdrawn from the reaction mixture at 0, 15, 30, 60, and 90 min and were quenched with stop solution (acetonitrile containing 200 ng/mL tolbutamide and 200 ng/mL labetalol as internal standards). A cocktail of 7-ethoxycoumarin (Lot#: I1825085) was used as the positive control for the assay. The analytical plates were sealed and stored at 4 °C until LC-MS/MS analysis. The data obtained from the BEA metabolic stability assays were used to calculate the intrinsic clearance and remaining percentages, as described in Table 4 and Figure 4.
(§5) The remaining percentages of test articles after incubation were calculated by the following equations:(7) %Remainingat Appointed Time=Peak Area Ratios of Test Article versus Internal Standard at Appointed Time/Peak Area Ratios of Test Article versus Internal Standard 0 min
(§6) We used the equation of first order kinetics to calculate T1/2 and CLint:
(§7) Equation of first-order kinetics:(8) Ct=C0·e^−k·t when Ct=1/2C0,T1/2=ln2/k=0.693/k (9) CLint hep=k/million cells per mL (10) CLint liver=CLint hep×Liver weight g/kg body weight×hepatocellularity

[7] = Plasma stability, mouse plasma; assay type: in vitro ADME
Experimental: as §3

CYP3A4 = CYP3A4 (Homo sapiens, UniProt P08684); assay: CYP inhibition evaluation in human liver microsomes, CYP3A4 (midazolam); settings: HLMs
[8] = Metabolic stability in cryopreserved hepatocytes, human; assay type: in vitro ADME
Experimental: as §4, §5, §6, §7

CYP3A4/5 = settings: human liver microsomes; cited from earlier work
CYP3A1/2 = test system: CYP3A1/2; parameters: method as in PMID 18956271; settings: rat liver microsomes; cited from earlier work
CYP1A2 = CYP1A2 (Homo sapiens, UniProt P05177); assay: CYP inhibition evaluation in human liver microsomes, CYP1A2 (phenacetin); settings: HLMs
[9] = Metabolic stability in liver microsomes, CLM; settings: scaled from CLM CLint(mic)
[10] = Metabolic stability in cryopreserved hepatocytes, rat; assay type: in vitro ADME, Sprague Dawley rat
Experimental: as §4, §5
We used the equation of first order kinetics to calculate T1/2 and CLint: […]

[11] = Metabolic stability in liver microsomes, RLM; assay type: in vitro ADME, Sprague Dawley rat; settings: scaled from RLM CLint(mic)
[12] = Metabolic stability in cryopreserved hepatocytes, dog; assay type: in vitro ADME, beagle dog
Experimental: as §4, §5, §6, §7

Beauvericin
CLint(liver) [1]: 329.4 mL/min/kg | Detected in liver microsomes: Dog [2]: + | Detected in liver microsomes: Rat [3]: + | T1/2 [4]: >4.82 h | Detected in liver microsomes: Human ([5]; BEA 10 µM, 37 °C, 60 min): + | Number of metabolites detected ([5]; HLM): 13 | CLint (hep) (μL/min/10^6) ([6]; monkey hepatocytes): 49.4 μL/min/10^6 | Remaining % (T = 90 min) ([6]; monkey hepatocytes, 90 min): 10.5% | CLint(liver) ([6]; scaled from monkey hepatocyte CLint): 178.0 mL/min/kg | T1/2 ([7]; 37 °C, n = 2): >4.82 h | Remaining % (T = 120 min) ([7]; 120 min): 110.6% | CYP3A4 inhibitor class (CYP3A4): potent inhibitor (IC50 < 10 μM—potent inhibitor) | CLint (hep) (μL/min/10^6) ([8]; human hepatocytes): 16.6 μL/min/10^6 | Remaining % (T = 90 min) ([8]; human hepatocytes, 90 min): 40.9% | CLint(liver) ([8]; scaled from human hepatocyte CLint): 46.3 mL/min/kg | Inhibition of midazolam 1′-hydroxylase (CYP3A4/5) activity (CYP3A4/5): strongly inhibited; also recorded: strong inhibitor | Inhibition of CYP3A1/2 (CYP3A1/2): strong inhibitor | Fu (%), unbound fraction (monkey plasma proteins): 0.09% | Bound Fraction (%) (monkey plasma proteins; dialysis 5 h, 37 °C, BEA 2 μM, warfarin 1 μM, n = 3): > 90% and 99.91 ± 1.62% | CYP1A2 inhibitor class (CYP1A2): weak inhibitor (IC50 > 10 μM—weak inhibitor) | CLint(liver) [9]: 258.0 mL/min/kg | CLint (hep) (μL/min/10^6) [10]: 18.3 μL/min/10^6 | T1/2 ([10]; 0.5 × 10^6 cells/mL, 1 μM, n = 2): > 1 h and 1.26 h | CLint(liver) [11]: 97.6 mL/min/kg | T1/2 ([12]; dog hepatocytes, 0.5 × 10^6 cells/mL, 1 μM, n = 2): 0.26 h | Remaining % (T = 90 min) ([12]; dog hepatocytes, 90 min): 1.7% | CLint(liver) ([12]; scaled from dog hepatocyte CLint): 612.5 mL/min/kg
